The text below walks through data of article PMC6753193 (Frontiers in Microbiology, 2019).

By UniProt entry, the sequences of proteins in these tests, tags left out. Residues count along the entry.
UniProt P62136, 7-300 limits assumed: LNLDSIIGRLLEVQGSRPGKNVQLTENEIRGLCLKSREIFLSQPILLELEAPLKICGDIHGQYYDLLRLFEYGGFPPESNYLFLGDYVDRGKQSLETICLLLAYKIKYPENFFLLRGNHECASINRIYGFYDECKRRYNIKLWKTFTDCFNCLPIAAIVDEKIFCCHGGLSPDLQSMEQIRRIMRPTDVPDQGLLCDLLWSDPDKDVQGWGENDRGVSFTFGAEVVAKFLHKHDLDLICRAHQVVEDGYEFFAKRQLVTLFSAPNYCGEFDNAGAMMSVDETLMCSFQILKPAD

This assay addresses WT PP1 (Homo sapiens, UniProt P62136). The experiment in a line: biochemical. It counts as binding.

`CC[C@H](C)[C@H](NC(=O)[C@H](Cc1ccccc1)NC(=O)[C@H](CS)NC(=O)[C@@H](NC(=O)[C@H](CCC(N)=O)NC(=O)[C@H](CS)NC(=O)[C@H](Cc1c[nH]cn1)NC(=O)[C@H](Cc1ccccc1)NC(=O)[C@H](CS)NC(=O)[C@H](CS)NC(=O)[C@H](CCCCN)NC(=O)[C@H](CCCCN)NC(=O)[C@H](CCCNC(=N)N)NC(=O)[C@H](CC(C)C)NC(=O)[C@@H]1CCCN1C(=O)[C@H](CO)NC(=O)[C@H](CO)NC(=O)[C@@H]1CCCN1C(=O)[C@H](Cc1ccccc1)NC(=O)[C@H](CCCCN)NC(=O)[C@H](Cc1ccc(O)cc1)NC(=O)[C@@H]1CCCN1C(=O)[C@H](COP(=O)(O)O)NC(=O)[C@H](CCCNC(=N)N)NC(=O)[C@@H]1CCCN1C(=O)[C@@H](NC(=O)[C@@H](N)Cc1c[nH]cn1)[C@@H](C)CC)C(C)C)C(=O)N[C@H](C(=O)N[C@@H](CCCCN)C(=O)O)[C@@H](C)O` [pRb-Tat, reference compound] yielded a Kd of 155 nM and a kd of 0.003941 s⁻¹. Also, the kon (pH 7.4, read-out: ka) turned out to be 25400 M⁻¹ s⁻¹.

By Kd is commonly meant the concentration at which binding is half-saturated. The low end stands for higher affinity, the high end for lower affinity.
